A mixed list of measured activities; the numbers were collected in NIAID ChemDB.

All rows: host cell toxicity; cells: U-937; read-out: CC50

Conditions beyond the fields shown may differ between rows.

smiles	read by	value
Nc1ccn([C@@H]2CC[C@H](CO)O2)c(=O)n1	-	42.8 µM
COC1CCC(OC2CC(C3OC(O)(CO)C(C)CC3C)OC2C2(C)CCC(C3(C)CCC4(CC(O)C(C)C(C(C)C5OC(O)(CC(=O)O)C(C)C(OC6CCC(OC)C(C)O6)C5OC)O4)O3)O2)OC1C	-	10.1 µg/mL
Nc1ccn([C@@H]2O[C@H](CO)C[C@@H]2F)c(=O)n1	-	7.7 µg/mL
CCCCCCC(=O)OC1(C)c2ccccc2-c2c1c(-n1ccnc1)nc1ccc(Br)cc21	MTT	>20 µg/mL
CC[C@@H](O)[C@]1(C)C[C@H](C)[C@@](O)([C@H]2C[C@H](C)[C@H]([C@]3(C)CC[C@H]([C@@H]4CC[C@@]5(O[C@H]([C@@H](C)[C@@H](OC)[C@H](C)C(=O)O)[C@H](C)[C@@H](OC)[C@H]5C)O4)O3)O2)O1	-	0.55 µg/mL
CCCCCCC(=O)O/N=C1\c2ccccc2-c2c1c(-n1ccnc1)nc1ccc(Br)cc21	MTT	>20 µg/mL
Nc1ccn([C@H]2CC[C@@H](CO)O2)c(=O)n1	-	5 µM
Nc1ccn([C@H]2CO[C@@H](CO)S2)c(=O)n1	-	>500 µM
Nc1ccn([C@H]2CC[C@@H](CO)O2)c(=O)n1	-	<0.95 µM
Cc1cc(/C=C/C#N)cc(C)c1Nc1ccnc(Nc2ccc(C#N)cc2)n1	MTT / absorbance	34 µM
CC(C)(C)OC(=O)NCC(=O)OC1(C)c2ccccc2-c2c1c(-n1ccnc1)nc1ccc(Br)cc21	MTT	>10 µg/mL
CC[C@@H](C(=O)[C@@H](C)[C@@H](O)[C@H](C)[C@@H]1O[C@@H]([C@@H](CC)C(=O)O)CC[C@@H]1C)[C@H]1O[C@@]2(C=C[C@@H](O)[C@@]3(CC[C@@](C)([C@H]4CC[C@](O)(CC)[C@H](C)O4)O3)O2)[C@H](C)C[C@@H]1C	-	0.28 µg/mL
Nc1nc(=O)n([C@@H]2CO[C@H](CO)S2)cc1F	-	>500 µM
CC(=O)c1ccc(C)cc1NC(C(N)=O)c1c(Cl)cccc1Cl	-	47 µM
Cc1cn([C@H]2C[C@H](N=[N+]=[N-])[C@@H](CO)O2)c(=O)[nH]c1=O	-	>1000 µM
CC[C@@H]1O[C@@H]([C@]2(C)C[C@@H](C)[C@](O)([C@]3(C)CC[C@@H]([C@@H](O)[C@]4(O)O[C@H](C[C@@]5(O)O[C@@H]([C@@H](C)[C@H](O)C[C@@H]6O[C@H]([C@@H](C)C(=O)O)[C@@H](C)C[C@H]6C)CC[C@@H]5C)[C@@H](C)C[C@H]4C)O3)O2)CC[C@@]1(C)O	-	0.8 µg/mL
CCCCCCCCC(=O)OC1(C)c2ccccc2-c2c1c(-n1ccnc1)nc1ccc(Br)cc21	MTT	20 µg/mL
Cc1cc(C#N)cc(C)c1Oc1nc(Nc2ccc(C#N)cc2)nc(N)c1Br	MTT / absorbance	55 µM

CCn: concentration that lowers growth or viability of the cells by n%. Blank or dashed fields: not listed here.